# Only a part is listed here, and it is no random draw. Calls of active or inactive are those of the source. Cut-off read from the data, not from the text of the source: active = protection mostly above about 24% (no sharp cut-off); inactive = mostly below about 26%.
# Experiment: blockers of measles virus-induced cell death – single point, MLSMR library, absorbance, measles RdRp inhibitor project, primary screen (AID 841)
# Conditions: Measles virus-infected cells, CPE protection, at 4 µM, active compounds read high
row,SMILES,protection (pct of control)
1,O=C(OC1CN2CCC1CC2)C1c2ccccc2Oc2ccccc21 (stereo not drawn),inactive: 5.69%
2,O=C(NCC1(N2CCOCC2)CCCCC1)c1cc2ccccc2o1,inactive: 1.25%
3,COc1ccc(NC2CCN(CCc3ccccc3)CC2)c(OC)c1,inactive: 11.8%
4,O=C(NCC1(N2CCOCC2)CCCCC1)c1cc(=O)[nH]c2ccccc12,inactive: 22.4%
5,CN1CCN(CCOC(=O)C(O)(c2ccccc2)c2ccccc2)CC1,inactive: 3.93%
6,N#CC1(Nc2ccccc2)CCN(CCc2ccccc2)CC1,inactive: 6.01%
7,O=C(OC1CN2CCC1CC2)C1c2ccccc2C=Cc2ccccc21 (stereo not drawn),inactive: 7.74%
8,N/C(=N\O)c1c(N)no[n+]1[O-],inactive: 19.5%
9,c1ccc(CN2CCC(Nc3ccccc3)CC2)cc1,inactive: 11.6%
10,CCN1CCC(Nc2cccc(F)c2)CC1,inactive: 15.7%
11,Fc1ccccc1NC1CCN(Cc2ccccc2)CC1,inactive: 12.6%
12,CCC(CO)(C(=O)OC1CN2CCC1CC2)c1ccccc1 (stereo not drawn),inactive: 6.04%
13,CCOc1ncccc1C(=O)NCC1(N2CCOCC2)CCCCC1,inactive: 1.85%
